Results from US20060287319A1, “Anti-viral compositions comprising heterocyclic substituted phenyl furans and related compounds” (priority 2005, published 2006).

What was measured:
MT-2 cells = details: read-out: Cytotoxicity CC50 (μM) (M ± SD)
Description: Detection of in vitro cytotoxicity. The in vitro cytotoxicity of compounds for MT-2 cells was measured by a colorimetric method using XTT tetrazolium dye as previously described (21). Briefly, 100 μl of a compound at a graded concentration was added to equal volume of cells (5×10^5/ml) in a well of 96-well plates. After incubation at 37° C. for 4 days, XTT (1 mg/ml; […]; PolySciences, Inc., Warrington, Pa.) was added. Four hours later, the soluble intracellular formazan was quantitated colorimetrically at 450 nm with a reference at 570 nm.

HIV-1 IIIB = details: selectivity index
Description: Assessment of anti-HIV-1 infectivity. The inhibitory activity of compounds on infection by laboratory-adapted HIV-1 strains was determined as previously described (34). […] For the time-of-addition assay, compounds were added at various time post-infection. Then the culture supernatants were removed and fresh media were added. On the fourth day post-infection, 100 μl of culture supernatants were collected from each well, mixed with equal volumes of 5% Triton X-100 and assayed for p24 antigen, which was quantitated by ELISA (23). Briefly, the wells of polystyrene plates (Immulon 1B, Dynex Technology, Chantilly, Va.) were coated with HIV immunoglobulin (HIVIG), which was prepared from plasma of HIV-seropositive donors with high neutralizing titers against HIV-1IIIB as previously described (36) in 0.085 M carbonate-bicarbonate buffer (pH 9.6) at 4° C. overnight, followed by washes with PBS-T buffer (0.01M PBS containing 0.05% Tween-20) and blocking with PBS containing 1% dry fat-free milk (Bio-Rad Inc., Hercules, Calif.). Virus lysates were added to the wells and incubated at 37° C. for 1 h. […] Reactions were terminated by addition of 1N H2SO4. […] Recombinant protein p24 (US Biological, Swampscott, Mass.) was included for establishing standard dose response curve.

Row | SMILES | CC50 (MT-2 cells) | SI (CC50/EC50) (HIV-1 IIIB)
1 | O=C(O)c1cccc(-c2ccc(/C=C3\SC(=S)N(Cc4ccccc4)C3=O)o2)c1 [NB182] | > 379 µM | >457.14
2 | O=C(O)c1cc(-c2ccc(/C=C3\SC(=O)N(Cc4ccccc4)C3=O)o2)ccc1Cl [NB192] | > 363 µM | 
3 | O=C(O)c1cc(-c2ccc(/C=C3\SC(=S)N(Cc4ccccc4)C3=O)o2)ccc1Cl [NB217] | 166 ± 17.7 µM | 163.2
